Compound potency records, mixed from different reports. Data source: NIAID ChemDB in PubChem.

All rows: cytotoxicity tests; cells: VERO; read-out: CC50

CCn: concentration that lowers growth or viability of the cells by n%. Rows are shuffled and stem from different studies.

smiles	result
Cc1c(CN2CCSCC2)cc(-c2ccccc2Cl)n1-c1ccccc1F	8 µg/mL
Nc1ncnc2c1ncn2[C@@H]1C[C@H](CO)[C@@H](O)[C@H]1O	4 µg/mL
Cc1c(CN2CCSCC2)cc(-c2ccccc2Cl)n1-c1ccccc1Cl	8 µg/mL
CCOc1ccc(-c2cc(N(CC)CC)no2)c(O)c1	>362 µM
O=CNCCCC[C@@H](NC(=O)[C@@H]1COC(c2ccccc2O)=N1)C(=O)O	>64 µg/mL
Cc1c(CN2CCN(C)CC2)cc(-c2ccccc2F)n1-c1ccccc1F	8 µg/mL
O=C(CN1c2c(-c3ccccc3)n[nH]c2-c2ccccc2S1(=O)=O)N/N=C/c1cccc(Cl)c1	13.2 µM
Cc1ccc2c(c1)c(N=NC(N)=S)c(O)n2CN1CCN(c2cc3c(cc2F)c(=O)c(C(=O)O)cn3C2CC2)CC1	>0.011 µM
Cn1cc(C(=O)NCc2ccc(Cl)cc2)c(=O)c2cc(CN3CCOCC3)ccc21	>100 µM
c1ccc(CCN2CCN([C@@H](Cc3ccccc3)CN3CCCC3CN3CCNC[C@H]3Cc3ccccc3)C[C@@H]2Cc2ccccc2)cc1	0.97 µg/mL
C=C[C@H](OC(C)=O)c1ccc(OC(C)=O)cc1	2 µg/mL
Nc1ccn([C@H]2C=C(F)[C@@H](CO)O2)c(=O)n1	>100 µM
CCc1ccccc1NC(=O)c1c(C)n([O-])c2ccc(C(F)(F)F)cc2[n+]1=O	>30 µg/mL
O=C(CN1c2c(-c3ccccc3)n[nH]c2-c2ccccc2S1(=O)=O)N/N=C/c1cccc(Br)c1	12.2 µM
O=c1[nH]cnc2c1ncn2[C@@H]1C=C(F)[C@H](CO)O1	>100 µM
Cc1c(CN2CCSCC2)cc(-c2ccccc2F)n1-c1ccccc1	4 µg/mL
O=C1C(=O)N(CN2CCN(c3cc4c(cc3F)c(=O)c(C(=O)O)cn4C3CC3)CC2)c2ccc(Br)cc21	>0.018 µM
C=CCNC(=S)Nc1ccc(-c2n[nH]c(=S)n2C)cc1	<0.698 µg/mL
COc1ccc(/C=N/NC(=O)CN2c3c(-c4ccccc4)n[nH]c3-c3ccccc3S2(=O)=O)c(OC)c1	82.8 µM
Nc1ncnc2c1ncn2C1CC(COP(=O)(O)O)[C@@H](O)[C@H]1O	10 µg/mL
O=CNCCCC[C@H](NC(=O)[C@@H]1COC(c2ccccc2O)=N1)C(=O)O	>64 µg/mL
Cc1ccc(CNC(=O)c2c(C)n([O-])c3ccccc3[n+]2=O)cc1	>40 µg/mL
CCOc1ccc(-c2cc(N3CCCCC3)no2)c(O)c1	>347 µM
CCc1ccccc1NC(=O)c1c(C)n([O-])c2ccc(C)cc2[n+]1=O	>100 µg/mL
CCCCCCCCCCCC(=O)c1c(O)cc(O)c([C@@H]2C[C@H](c3ccc(O)cc3)Oc3cc(O)ccc32)c1O.CCCCCCCCCCCC(=O)c1c(O)cc(O)c([C@@H]2C[C@H](c3ccc(O)cc3)Oc3cc(O)ccc32)c1O	16.4 µg/mL
O=S1(=O)C[C@H](O)[C@@H](O)CS1	352.8 µM
CSc1ncnc2c([C@@H]3O[C@H](COC(C)=O)[C@@H](OC(C)=O)[C@H]3OC(C)=O)[nH]nc12	<1 µg/mL
CN(C)c1cc(-c2ccc(O)cc2O)on1	227 µM
Nc1nc2c(ncn2COC(CO)CO)c(=O)[nH]1	>100 µM
Cc1c(CN2CCSCC2)cc(-c2ccc(Cl)cc2)n1-c1ccc(F)cc1	8 µg/mL
COc1ccccc1-c1cc(C(F)(F)F)nc2c(C(F)(F)F)cccc12	95 µM
Nc1ccn(CC[C@H](O)CCO)c(=O)n1	>400 µg/mL
NC(=O)CSc1ncnc2c1cnn2COCCO	>400 µg/mL
CC(C)(C)OC(=O)Nc1ccc(-c2cc(C(F)(F)F)nc3c(C(F)(F)F)cccc23)cc1	15 µM
O=C1C(=O)N(CN2CCN(c3cc4c(cc3F)c(=O)c(C(=O)O)cn4C3CC3)CC2)c2ccc(Cl)cc21	>0.019 µM
CC1CCC(CN2CCN([C@@H](Cc3ccccc3)CN3CCCC3CN3CCNC[C@@H]3Cc3ccccc3)C[C@@H]2Cc2ccccc2)CC1	0.82 µg/mL
NC(=O)N=Nc1c(O)n(CN2CCN(c3cc4c(cc3F)c(=O)c(C(=O)O)cn4C3CC3)CC2)c2ccc(Cl)cc12	>0.017 µM
CN(C)c1ccc(/C=N/NC(=O)CN2c3c(-c4ccccc4)n[nH]c3-c3ccccc3S2(=O)=O)cc1	14.6 µM
NC(=O)CSc1ncnc2c1cnn2COCC(O)CO	>400 µg/mL
Nc1nc2c(ncn2COC(CO)CCP(=O)(O)O)c(=O)[nH]1	>1000 µM
Cc1cn(CC[C@H](O)CCO)c(=O)[nH]c1=O	>400 µg/mL
CC/C=C/C/C=C/C/C=C/CCCCCCCC(=O)OC[C@H](CO[C@@H]1O[C@H](CO)[C@@H](O)[C@H](O)[C@H]1O)OC(=O)CCCCCCC/C=C/C/C=C/C/C=C/CC	>100 µg/mL
CCN(CC)c1cc(-c2ccc(O)cc2O)on1	121 µM
Nc1nc2c(ncn2COC(COP(=O)(O)O)COP(=O)(O)O)c(=O)[nH]1	800 µM
Nc1nc2c(ncn2[C@@H]2C=C(F)[C@H](CO)O2)c(=O)[nH]1	>100 µM
COc1ccc(-c2cc(N(C)C)no2)c(O)c1	>427 µM
Cc1c(CN2CCSCC2)cc(-c2ccc(F)cc2)n1-c1ccc(F)cc1	8 µg/mL
COc1cccc(-c2cc(C(F)(F)F)nc3c(C(F)(F)F)cccc23)c1	57 µM
Cc1c(CN2CCN(C)CC2)cc(-c2ccccc2Cl)n1-c1cccc2ccccc12	2 µg/mL
Nc1ccn([C@@H]2O[C@H](CO)[C@@H](CO)[C@@H]2F)c(=O)n1	≥100 µM
Nc1nc2c(ncn2[C@H]2C=C(F)[C@@H](CO)O2)c(=O)[nH]1	>100 µM
O=[N+]([O-])c1cccc(SSc2cccc([N+](=O)[O-])c2)c1	143.1 µM
CSc1ncnc2c1cnn2[C@@H]1O[C@H](COC(C)=O)[C@@H](OC(C)=O)[C@H]1OC(C)=O	320 µg/mL
NC(=O)CSc1ncnc2c1cnn2CCCCO	>400 µg/mL
O=C(CN1c2c(-c3ccccc3)n[nH]c2-c2ccccc2S1(=O)=O)N/N=C/c1ccccc1[N+](=O)[O-]	59.3 µM
COc1ccc(-c2cc(N3CCCCC3)no2)c(O)c1	>364 µM
O=c1[nH]cnc2c1ncn2[C@H]1C=C(F)[C@@H](CO)O1	>100 µM
Cc1ccc(-n2c(-c3ccc(F)cc3)cc(CN3CCSCC3)c2C)cc1	32 µg/mL
CO[C@H](CO)[C@@H](O)CCn1cnc2c(=O)[nH]c(N)nc21	>400 µg/mL
Nc1ccc(-n2cc(C(=O)O)c(=O)c3cc(F)c(N4CCNCC4)cc32)c(F)c1	>62.5 µg/mL
O=C(CCCCCCCCc1ccccc1)c1c(O)cc(O)c([C@@H]2C[C@@H](c3ccc(O)cc3)Oc3cc(O)ccc32)c1O	13.6 µg/mL

Repeating the final 7 entries:

smiles	result
O=C(CN1c2c(-c3ccccc3)n[nH]c2-c2ccccc2S1(=O)=O)N/N=C/c1ccccc1[N+](=O)[O-]	59.3 µM
COc1ccc(-c2cc(N3CCCCC3)no2)c(O)c1	>364 µM
O=c1[nH]cnc2c1ncn2[C@H]1C=C(F)[C@@H](CO)O1	>100 µM
Cc1ccc(-n2c(-c3ccc(F)cc3)cc(CN3CCSCC3)c2C)cc1	32 µg/mL
CO[C@H](CO)[C@@H](O)CCn1cnc2c(=O)[nH]c(N)nc21	>400 µg/mL
Nc1ccc(-n2cc(C(=O)O)c(=O)c3cc(F)c(N4CCNCC4)cc32)c(F)c1	>62.5 µg/mL
O=C(CCCCCCCCc1ccccc1)c1c(O)cc(O)c([C@@H]2C[C@@H](c3ccc(O)cc3)Oc3cc(O)ccc32)c1O	13.6 µg/mL